This assay addresses HIV-1 AD8 gp120 (wild type), cut from Env gp160 (HIV-1 AD8).

In the case of “soluble CD4 (from UniProt P01730) (receptor)”, the IC50 of sCD4 for inhibition of cell-cell fusion by WT Env (293T effectors, CD4-plus-CCR5 BHK21 targets, luciferase) stood at 60 µg/mL.

These data come from publication PMC3616969.
